A mixed list of measured activities; the numbers were collected in NIAID ChemDB.

Shared fields: growth or infection tests; species: Mycobacterium avium complex

a–b is a range or a potency band. Neighbouring rows are from separate reports. A number after MIC or MFC names an inhibition level or a share of isolates. An empty or dashed field is not shown. ECn is the concentration giving n% inhibition of infection, replication or growth.

{"compound": "Cc1cc(C)nc(NS(=O)(=O)c2ccc(N)cc2)n1", "strain or isolate": "FAR", "measure": "MIC", "result": "16 µg/mL"}
{"compound": "Cc1cccc(Sc2nc(Cl)nc3nc[nH]c23)c1", "strain or isolate": "NJ211", "measure": "MIC", "result": ">12.8 µg/mL"}
{"compound": "O=C1c2cc(Br)ccc2-n2c1nc1ccncc1c2=O", "strain or isolate": "101", "measure": "MIC", "result": "<0.2 µg/mL"}
{"compound": "COc1ccccc1CSc1ccccn1", "strain or isolate": "NJ211", "measure": "MIC", "result": ">12.8 µg/mL"}
{"compound": "CC[C@H]1OC(=O)[C@H](C)[C@@H](O[C@H]2C[C@@](C)(OC)[C@@H](OC(C)=O)[C@H](C)O2)[C@H](C)[C@@H](O[C@@H]2O[C@H](C)C[C@H](N(C)C)[C@H]2O)C(C)(O)C[C@@H](C)/C(=N\\OCCCCOc2ccccc2)[C@H](C)[C@@H](O)[C@]1(C)O", "strain or isolate": "20039 (clarithromycin-susceptible)", "measure": "MIC", "result": "1.56 µg/mL"}
{"compound": "CC[C@H]1OC(=O)[C@H](C)C(=O)[C@H](C)[C@@H](O[C@@H]2O[C@H](C)C[C@H](N(C)C)[C@H]2O)[C@](C)(OC)C[C@@H](C)C(=O)[C@H](C)[C@H]2N(NCCCc3ccnc4ccccc34)C(=O)O[C@]12C", "strain or isolate": "24 strains (HIV+)", "measure": "MIC90", "result": "27 µg/mL"}
{"compound": "CC1(C)N=C(N)N=C(N)N1OCCCOc1cc(Cl)c(Cl)cc1Cl", "strain or isolate": "DW3", "measure": "MIC", "result": "0.5 µg/mL"}
{"compound": "CC[C@H]1OC(=O)[C@H](C)[C@@H](O[C@H]2C[C@@](C)(OC)[C@@H](O)[C@H](C)O2)[C@H](C)[C@@H](O[C@@H]2O[C@H](C)C[C@H](N(C)C)[C@H]2O)[C@](C)(OC)C[C@@H](C)C(=O)[C@H](C)[C@@H](O)[C@]1(C)O", "strain or isolate": "4 strains", "measure": "MIC", "result": "4–8 µg/mL"}
{"compound": "CO[C@H]1/C=C/O[C@@]2(C)Oc3c(C)c(O)c4c(O)c(c5c(c4c3C2=O)NC2(CCN(CC(C)C)CC2)N=5)=NC(=O)/C(C)=C\\C=C\\[C@H](C)[C@H](O)[C@@H](C)[C@@H](O)[C@@H](C)[C@H](OC(C)=O)[C@@H]1C", "strain or isolate": "1317-2", "measure": "MBC", "result": "32 µg/mL"}
{"compound": "O=C1c2cc(Cl)ccc2-n2c1nc1cc(N3CCOCC3)ccc1c2=O", "strain or isolate": "19075", "measure": "MIC", "result": ">25 µg/mL"}
{"compound": "O[C@H](c1cc(C(F)(F)F)nc2c(C(F)(F)F)cccc12)[C@H]1CCCCN1", "strain or isolate": "5 clinical isolates", "measure": "MIC", "result": ">16 µg/mL"}
{"compound": "N[C@@H]1CONC1=O", "strain or isolate": "14 strains", "measure": "EC50", "read by": "agar", "result": "<30 µg/mL"}
{"compound": "CC[C@H]1OC(=O)[C@H](C)[C@@H](OC2C[C@@](C)(OC)[C@@H](O)[C@H](C)O2)[C@H](C)[C@@H](O[C@@H]2O[C@H](C)C[C@H](N(C)C)[C@H]2O)C(C)(O)C[C@@H](C)/C(=N\\OCCOc2ccccc2)[C@H](C)[C@@H](O)[C@]1(C)O", "strain or isolate": "20039 (clarithromycin-susceptible)", "measure": "MIC", "result": "1.56 µg/mL"}
{"compound": "CCCCCSc1ncnc2nc[nH]c12", "strain or isolate": "NJ211", "measure": "MIC", "result": ">12.8 µg/mL"}
{"compound": "CCc1cc(C(N)=S)ccn1", "strain or isolate": "97 strains", "measure": "EC50", "read by": "agar", "result": ">10 µg/mL"}
{"compound": "Cc1ccccc1CSc1ncnc2nc[nH]c12", "strain or isolate": "NJ211", "measure": "MIC", "result": ">12.8 µg/mL"}
{"compound": "O[C@@H](c1cc2ccc(C(F)(F)F)cc2c2cc(C(F)(F)F)ccc12)[C@H]1CCCCN1", "strain or isolate": "101 (clarithromycin-resistant)", "measure": "MIC", "result": "4 µg/mL"}
{"compound": "CC1COc2c(N3CCN(C)CC3)c(F)cc3c(=O)c(C(=O)O)cn1c23", "strain or isolate": "89 isolates", "measure": "MIC50", "result": "16 µg/mL"}
{"compound": "CN(CCO)c1ccc2c(=O)n3c(nc2c1)C(=O)c1cc(Cl)ccc1-3", "strain or isolate": "19075", "measure": "MIC", "result": ">25 µg/mL"}
{"compound": "O=c1nc(SCc2cccnc2)c2[nH]cnc2[nH]1", "strain or isolate": "NJ211", "measure": "MIC", "result": ">12.8 µg/mL"}
{"compound": "CCOC(=O)c1ccc2c(c1)C(=O)c1nc3c(OC)cccc3c(=O)n1-2", "strain or isolate": "101", "measure": "MIC", "result": "1 µg/mL"}
{"compound": "Cc1ccccc1Sc1ncnc2nc[nH]c12", "strain or isolate": "NJ211", "measure": "MIC", "result": ">12.8 µg/mL"}
{"compound": "CCCCN(CCCC)C[C@@H](O)c1cc2c(Cl)cc(Cl)cc2c2cc(C(F)(F)F)ccc12", "strain or isolate": "5 clinical isolates", "measure": "MIC", "result": "4–8 µg/mL"}
{"compound": "CC[C@H]1OC(=O)[C@H](C)[C@@H](O[C@H]2C[C@@](C)(OC)[C@@H](O)[C@H](C)O2)[C@H](C)[C@@H](O[C@@H]2O[C@H](C)C[C@H](N(C)C)[C@H]2O)[C@](C)(O)C[C@@H](C)/C(=N\\OCOCCOC)[C@H](C)[C@@H](O)[C@]1(C)O", "strain or isolate": "Isolate 90-0827", "measure": "MIC", "result": "8 µg/mL"}
{"compound": "Cc1cccc2nc3n(c(=O)c12)-c1ccc(F)cc1C3=O", "strain or isolate": "19075", "measure": "MIC", "result": "1 µg/mL"}
{"compound": "O[C@H](c1cc2ccc(C(F)(F)F)cc2c2cc(C(F)(F)F)ccc12)[C@H]1CCCCN1", "strain or isolate": "24 clinical isolates", "measure": "MIC90", "result": "4 µg/mL"}
{"compound": "CCCCCCC(C)c1ccc2c(c1)C(=O)c1nc3ccncc3c(=O)n1-2", "strain or isolate": "19075", "measure": "MIC", "result": "0.06 µg/mL"}
{"compound": "CCSc1nc(Cl)nc2nc[nH]c12", "strain or isolate": "NJ211", "measure": "MIC", "result": ">12.8 µg/mL"}
{"compound": "CCNNC(=O)O[C@H]1[C@H](O[C@@H]2[C@@H](C)[C@H](O[C@H]3C[C@@](C)(OC)[C@@H](OC(C)=O)[C@H](C)O3)[C@@H](C)C(=O)O[C@H](CC)[C@@](C)(O)[C@H](O)[C@@H](C)/C(=N/OCCCC3CCCCC3)[C@H](C)CC2(C)O)O[C@H](C)C[C@@H]1N(C)C", "strain or isolate": "20096 (clarithromycin-resistant)", "measure": "MIC", "result": "3.13 µg/mL"}
{"compound": "CCCCCCCN(CCCCCCC)C[C@@H](O)c1cc2ccccc2c2cc(Br)ccc12", "strain or isolate": "5 clinical isolates", "measure": "MIC", "result": ">32 µg/mL"}
{"compound": "CC[C@H]1OC(=O)[C@H](C)[C@@H](O[C@H]2C[C@@](C)(OC)[C@@H](OC(C)=O)[C@H](C)O2)[C@H](C)[C@@H](O[C@@H]2O[C@H](C)C[C@H](N(C)C)[C@H]2OC(=O)NNC2CCCCC2)C(C)(O)C[C@@H](C)/C(=N\\OCCCC2CCCCC2)[C@H](C)[C@@H](O)[C@]1(C)O", "strain or isolate": "20096 (clarithromycin-resistant)", "measure": "MIC", "result": "0.39 µg/mL"}
{"compound": "COc1cc(NC(C)CCCN)c2nccc(/C=C\\C3CCCCC3)c2c1", "strain or isolate": "5 clinical isolates", "measure": "MIC", "result": ">16 µg/mL"}

Repeating the final 4 entries:

compound,strain or isolate,measure,read by,result
CCNNC(=O)O[C@H]1[C@H](O[C@@H]2[C@@H](C)[C@H](O[C@H]3C[C@@](C)(OC)[C@@H](OC(C)=O)[C@H](C)O3)[C@@H](C)C(=O)O[C@H](CC)[C@@](C)(O)[C@H](O)[C@@H](C)/C(=N/OCCCC3CCCCC3)[C@H](C)CC2(C)O)O[C@H](C)C[C@@H]1N(C)C,20096 (clarithromycin-resistant),MIC,,3.13 µg/mL
CCCCCCCN(CCCCCCC)C[C@@H](O)c1cc2ccccc2c2cc(Br)ccc12,5 clinical isolates,MIC,,>32 µg/mL
CC[C@H]1OC(=O)[C@H](C)[C@@H](O[C@H]2C[C@@](C)(OC)[C@@H](OC(C)=O)[C@H](C)O2)[C@H](C)[C@@H](O[C@@H]2O[C@H](C)C[C@H](N(C)C)[C@H]2OC(=O)NNC2CCCCC2)C(C)(O)C[C@@H](C)/C(=N\OCCCC2CCCCC2)[C@H](C)[C@@H](O)[C@]1(C)O,20096 (clarithromycin-resistant),MIC,,0.39 µg/mL
COc1cc(NC(C)CCCN)c2nccc(/C=C\C3CCCCC3)c2c1,5 clinical isolates,MIC,,>16 µg/mL